Compound potency records, mixed from different reports. Data source: NIAID ChemDB in PubChem.

All rows: tests in culture; species: HIV-1; cells: MT-2; read-out: EC50

Neighbouring rows are from separate reports. ECn: concentration that inhibits the pathogen or its effect by n%. An empty or dashed field is not shown.

compound | strain or isolate | mutations | read by | result
Cc1cn([C@H]2C[C@H](N=[N+]=[N-])[C@@H](CO)O2)c(=O)[nH]c1=O | IIIB | ATV-P36 atazanavir-resistant mutant | ATP | 0.504 µM
Nc1nc(=O)n([C@@H]2CS[C@H](CO)O2)cc1F | Clinical isolate | M41L/D67N/K70R/K103N/L210W/T215F/K219Q | recombinant virus assay | 0.516 µM
Nc1nc2c(ncn2[C@H]2CO[C@@H](CO)O2)c(=O)[nH]1 | Site-directed mutant | RT-L74V | cytopathic effect / XTT | 7.7 µM
Nc1nc(NC2CC2)c2ncn([C@H]3C=C[C@@H](CO)C3)c2n1 |  | RT-delta67 T69G | p24 | 0.214 µM
O=c1[nH]cnc2c1ncn2[C@H]1CC[C@@H](CO)O1 | L74V(RT-L74V) | RT-L74V | p24 | 3.2 µM
Cc1ccc(S(=O)(=O)N(CC(C)C)C[C@@H](O)[C@H](Cc2ccccc2)NC(=O)O[C@H]2CO[C@H]3OCC[C@H]32)cc1 | IIIB |  | ATP | 0.0036 µM
O=c1[nH]cnc2c1ncn2[C@@H]1O[C@H](CO)C[C@@H]1F | L214F(RT-L214F) | RT-L214F | p24 | 16 µM
Cc1cn([C@H]2C=C[C@@H](CO)O2)c(=O)[nH]c1=O | Site-directed mutant | RT-K65R Y115F M184V | cytopathic effect / XTT | 8.71 µM
Nc1ncnc2c1ncn2CCOCP(=O)(O)O | K65R(RT-K65R) | RT-K65R | p24 | 0.4 µM
Nc1nc(=O)n([C@@H]2CS[C@H](CO)O2)cc1F | HXB2 |  | cytopathic effect / XTT | 0.1 µM
Nc1ccn([C@H]2CC[C@@H](CO)O2)c(=O)n1 |  | RT-delta67 T69G | p24 | 0.083 µM
Nc1nc(=O)n([C@@H]2CS[C@H](CO)O2)cc1F | Site-directed mutant | RT-K65R Y115F | cytopathic effect / XTT | 19.6 µM
Cc1cn([C@H]2C[C@H](N=[N+]=[N-])[C@@H](CO)O2)c(=O)[nH]c1=O | NL4-3 | RT-V75T | p24 | 0.006 µM
Nc1ncnc2c1ncn2[C@@H]1O[C@H](CO)C[C@@H]1F | HXB2 |  | p24 | 5.8 µM
O=c1[nH]cnc2c1ncn2[C@H]1CC[C@@H](CO)O1 | HXB2 |  | cytopathic effect / XTT | 4.3 µM
CC(C)(C)OC(=O)N[C@@H](Cc1ccccc1)[C@H](O)CNC[C@@H](O)[C@H](Cc1ccc(OCC(=O)N2CCOCC2)cc1)NC(=O)OC(C)(C)C | RF |  |  | 0.24 µM
CCOP(=O)(COc1ccc(C[C@H](NC(=O)O[C@H]2CO[C@H]3OCC[C@H]32)[C@H](O)CN(CC(C)C)S(=O)(=O)c2ccc(OC)cc2)cc1)OCC | IIIB | 8374-P362 GS-8374-resistant | ATP | 0.0725 µM
CC(C)OC(=O)OCOP(=O)(CO[C@H](C)Cn1cnc2c(N)ncnc21)OCOC(=O)OC(C)C | IIIB |  | p24 | 0.007 µM
Cc1cn([C@H]2C=C[C@@H](CO)O2)c(=O)[nH]c1=O | Clinical isolate | K103N/Y188L | recombinant virus assay | 0.384 µM
Cc1cn([C@H]2C[C@H](N=[N+]=[N-])[C@@H](CO)O2)c(=O)[nH]c1=O | Site-directed mutant | RT-Q151M | cytopathic effect / XTT | 3.4 µM

Repeating the first 2 entries:

| compound | strain or isolate | mutations | read by | result |
|---|---|---|---|---|
| Cc1cn([C@H]2C[C@H](N=[N+]=[N-])[C@@H](CO)O2)c(=O)[nH]c1=O | IIIB | ATV-P36 atazanavir-resistant mutant | ATP | 0.504 µM |
| Nc1nc(=O)n([C@@H]2CS[C@H](CO)O2)cc1F | Clinical isolate | M41L/D67N/K70R/K103N/L210W/T215F/K219Q | recombinant virus assay | 0.516 µM |